In paper PMC9104152, “Phosphoproteomics Unravel HBV Triggered Rewiring of Host Phosphosignaling Events” (International Journal of Molecular Sciences, 2022):

Tested on: HepG2-NTCP cells
Assay: TMT-based phosphoproteome profiling of HBV-infected vs mock HepG2-NTCP (HBV/mock ratio)
Set-up: species or system human
Details: phosphosite abundance ratio of host protein, HBV-infected vs mock HepG2-NTCP, 7dpi, sheet Up-regulated

| Molecule | HBV/mock |
| --- | --- |
| P46060 2xPhospho [S442(100); S/T] (protein, UniProt P46060 2-587, looked up, diphosphorylated incl. S442) Ran GTPase-activating protein …: ASEDIAKLAETLAKTQVAGGQLSFKGKSLKLNTAEDAKDVIKEIEDFDSLEALRLEGNTVGVEAARVIAKALEKKSELKRCHWSDMFTGRLRTEIPPALISLGEGLITAGAQLVELDLSDNAFGPDGVQGFEALLKSSACFTLQELKLNNCGMGIGGGKILAAALTECHRKSSAQGKPLALKVFVAGRNRLENDGATALAEAFRVIGTLEEVHMPQNGINHPGITALAQAFAVNPLLRVINLNDNTFTEKGAVAMAETLKTLRQVEVINFGDCLVRSKGAVAIADAIRGGLPKLKELNLSFCEIKRDAALAVAEAMADKAELEKLDLNGNTLGEEGCEQLQEVLEGFNMAKVLASLSDDEDEEEEEEGEEEEEEAEEEEEEDEEEEEEEEEEEEEEPQQRGQGEKSATPSRKILDPNTGEPAPVLSSPPPADVSTFLAFPSPEKLLRLGPKSSVLIAQQTDTSDPEKVVSAFLKVSSVFKDEATVRMAVQDAVDALMQKAFNSSSFNSNTFLTRLLVHMGLLKSEDKVKAIANLYGPLMALNHMVQQDYFPKALAPLLLAFVTKPNSALESCSFARHSLLQTLYKV | 1.521 |
| P46060 1xPhospho [S/T] (protein, UniProt P46060 2-587, looked up, phosphorylated) Ran GTPase-activating protein …: ASEDIAKLAETLAKTQVAGGQLSFKGKSLKLNTAEDAKDVIKEIEDFDSLEALRLEGNTVGVEAARVIAKALEKKSELKRCHWSDMFTGRLRTEIPPALISLGEGLITAGAQLVELDLSDNAFGPDGVQGFEALLKSSACFTLQELKLNNCGMGIGGGKILAAALTECHRKSSAQGKPLALKVFVAGRNRLENDGATALAEAFRVIGTLEEVHMPQNGINHPGITALAQAFAVNPLLRVINLNDNTFTEKGAVAMAETLKTLRQVEVINFGDCLVRSKGAVAIADAIRGGLPKLKELNLSFCEIKRDAALAVAEAMADKAELEKLDLNGNTLGEEGCEQLQEVLEGFNMAKVLASLSDDEDEEEEEEGEEEEEEAEEEEEEDEEEEEEEEEEEEEEPQQRGQGEKSATPSRKILDPNTGEPAPVLSSPPPADVSTFLAFPSPEKLLRLGPKSSVLIAQQTDTSDPEKVVSAFLKVSSVFKDEATVRMAVQDAVDALMQKAFNSSSFNSNTFLTRLLVHMGLLKSEDKVKAIANLYGPLMALNHMVQQDYFPKALAPLLLAFVTKPNSALESCSFARHSLLQTLYKV | 1.366 |
| Q08999 1xPhospho [S1068(100)] (protein, UniProt Q08999 1-1139, looked up, phospho S1068) Retinoblastoma-like protein 2: MPSGGDQSPPPPPPPPAAAASDEEEEDDGEAEDAAPPAESPTPQIQQRFDELCSRLNMDEAARAEAWDSYRSMSESYTLEGNDLHWLACALYVACRKSVPTVSKGTVEGNYVSLTRILKCSEQSLIEFFNKMKKWEDMANLPPHFRERTERLERNFTVSAVIFKKYEPIFQDIFKYPQEEQPRQQRGRKQRRQPCTVSEIFHFCWVLFIYAKGNFPMISDDLVNSYHLLLCALDLVYGNALQCSNRKELVNPNFKGLSEDFHAKDSKPSSDPPCIIEKLCSLHDGLVLEAKGIKEHFWKPYIRKLYEKKLLKGKEENLTGFLEPGNFGESFKAINKAYEEYVLSVGNLDERIFLGEDAEEEIGTLSRCLNAGSGTETAERVQMKNILQQHFDKSKALRISTPLTGVRYIKENSPCVTPVSTATHSLSRLHTMLTGLRNAPSEKLEQILRTCSRDPTQAIANRLKEMFEIYSQHFQPDEDFSNCAKEIASKHFRFAEMLYYKVLESVIEQEQKRLGDMDLSGILEQDAFHRSLLACCLEVVTFSYKPPGNFPFITEIFDVPLYHFYKVIEVFIRAEDGLCREVVKHLNQIEEQILDHLAWKPESPLWEKIRDNENRVPTCEEVMPPQNLERADEICIAGSPLTPRRVTEVRADTGGLGRSITSPTTLYDRYSSPPASTTRRRLFVENDSPSDGGTPGRMPPQPLVNAVPVQNVSGETVSVTPVPGQTLVTMATATVTANNGQTVTIPVQGIANENGGITFFPVQVNVGGQAQAVTGSIQPLSAQALAGSLSSQQVTGTTLQVPGQVAIQQISPGGQQQKQGQSVTSSSNRPRKTSSLSLFFRKVYHLAAVRLRDLCAKLDISDELRKKIWTCFEFSIIQCPELMMDRHLDQLLMCAIYVMAKVTKEDKSFQNIMRCYRTQPQARSQVYRSVLIKGKRKRRNSGSSDSRSHQNSPTELNKDRTSRDSSPVMRSSSTLPVPQPSSAPPTPTRLTGANSDMEEEERGDLIQFYNNIYIKQIKTFAMKYSQANMDAPPLSPYPFVRTGSPRRIQLSQNHPVYISPHKNETMLSPREKIFYYFSNSPSKRLREINSMIRTGETPTKKRGILLEDGSESPAKRICPENHSALLRRLQDVANDRGSH | 1.414 |
| Q14498 1xPhospho [S136(100)] (protein, UniProt Q14498 2-530, looked up, phosphorylated S136) RNA-binding protein 39: ADDIDIEAMLEAPYKKDENKLSSANGHEERSKKRKKSKSRSRSHERKRSKSKERKRSRDRERKKSKSRERKRSRSKERRRSRSRSRDRRFRGRYRSPYSGPKFNSAIRGKIGLPHSIKLSRRRSRSKSPFRKDKSPVREPIDNLTPEERDARTVFCMQLAARIRPRDLEEFFSTVGKVRDVRMISDRNSRRSKGIAYVEFVDVSSVPLAIGLTGQRVLGVPIIVQASQAEKNRAAAMANNLQKGSAGPMRLYVGSLHFNITEDMLRGIFEPFGRIESIQLMMDSETGRSKGYGFITFSDSECAKKALEQLNGFELAGRPMKVGHVTERTDASSASSFLDSDELERTGIDLGTTGRLQLMARLAEGTGLQIPPAAQQALQMSGSLAFGAVAEFSFVIDLQTRLSQQTEASALAAAASVQPLATQCFQLSNMFNPQTEEEVGWDTEIKDDVIEECNKHGGVIHIYVDKNSAQGNVYVKCPSIAAAIAAVNALHGRWFAGKMITAAYVPLPTYHNLFPDSMTATQLLVPSRR | 1.371 |
| Q99856 1xPhospho [S101(100)] (protein, UniProt Q99856 1-593, looked up, phosphorylated S101) AT-rich interactive …: MKLQAVMETLLQRQQRARQELEARQQLPPDPPAAPPGRARAAPDEDREPESARMQRAQMAALAAMRAAAAGLGHPASPGGSEDGPPGSEEEDAAREGTPGSPGRGREGPGEEHFEDMASDEDMKPKWEEEEMEEDLGEDEEEEEEDYEDEEEEEDEEGLGPPGPASLGTTALFPRKAQPPQAFRGDGVPRVLGGQERPGPGPAHPGGAAHVAPQLQPPDHGDWTYEEQFKQLYELDGDPKRKEFLDDLFSFMQKRGTPVNRIPIMAKQVLDLFMLYVLVTEKGGLVEVINKKLWREITKGLNLPTSITSAAFTLRTQYMKYLYPYECEKRGLSNPNELQAAIDSNRREGRRQSFGGSLFAYSPGGAHGMLSSPKLPVSSLGLAASTNGSSITPAPKIKKEEDSAIPITVPGRLPVSLAGHPVVAAQAAAVQAAAAQAAVAAQAAALEQLREKLESAEPPEKKMALVADEQQRLMQRALQQNFLAMAAQLPMSIRINSQASESRQDSAVNLTGTNGSNSISMSVEINGIMYTGVLFAQPPAPTPTSAPNKGGGGGGGSSSNAGGRGGNTGTSGGQAGPAGLSTPSTSTSNNSLP | 1.485 |
